Consider one compound from article PMC3210460, “Structure-Based Design of Ricin Inhibitors” (2011).

This test has as its target ricin toxin A chain (RTA) (Ricinus communis, UniProt P02879).

SMILES strings stand for the structures.

A word on the % inhibition: it is the change of the read-out against control, counted positive when it falls. The low end stands for a weak effect, the high end for a strong effect. For orientation: IC50 means the midpoint of a concentration-inhibition curve.

For the compound `NNC(=O)c1cnc2c(=O)[nH]c(N)nc2n1`, the “% inhibition at maximum concentration” value (50% inhibition not reached, maximum concentration 500 μM) came out at 35%. In addition, for the setting “RTA inhibition, Table 1 summary of pterin-based inhibitors”, the IC50 was over 500 µM.
